The values that follow come from PMC3642082.

The target in assay [1] is SOSIP.664 gp140 trimer of Clade A KNH1144 sequence (HIV-1 clade A KNH1144). The assay is described as follows: ITC.
The target of assay [2] is PGT123+gp120 complex (human | HIV-1 JRFL) (UniProt Q75760). As to the kind of experiment: ITC; sequential binding: the mixed sample of the first titration left in the cell, then Fab or sCD4 added in a second titration; 20 mM Tris, 150 mM NaCl, pH 8.0; single-site binding model. (In general: In ITC the heat of successive injections is recorded.)
Assay [3] concerns the target PGT121+gp120 complex (human | HIV-1 JRFL) (UniProt Q75760). The assay is described as above.
In assay [4] the target is PGT122+gp120 complex (human | HIV-1 JRFL) (UniProt Q75760). Described as above.

By Kd is commonly meant a measure of binding affinity in units of concentration. Low readings indicate tighter binding, high ones weaker binding. The term stoichiometry N denotes the number of molecules, sites or subunits per partner or assembly. For “soluble CD4 (from UniProt P01730) (receptor)”, the Kd in assay [1] turned out to be 0.579 µM; in assay [2], 2.2 µM; in assay [3] it was 13.4 µM; in assay [4], 11.2 µM. In assay [1], this substance yielded a dH of -23.9 kcal/mol. The substance further had a stoichiometry N in assay [1] of 2.2.
